Results from PubChem BioAssay (NCATS).
The entries are a selection whose mix differs from that of the whole data set. For part of these data: Potency and affinity values are given separately. Active and inactive are the calls of the source.

Columns and labels:
[1] = Ebola virus entry assay, blue channel fluorescence
[2] = Ebola virus entry assay, ratio channel readout
[3] = Ebola virus entry cell assay, ratio channel
[4] = Ebola virus entry assay, ratio channel
[5] = Ebola virus entry assay, reporter ratio channel; Channel type: primary
[6] = Ebola virus entry assay, green fluorescence channel
[7] = Ebola virus entry assay, green fluorescence channel; remark: listed apart in the source
[8] = Ebola virus entry assay, green channel fluorescence
[9] = Ebola virus entry assay, blue channel fluorescence; remark: listed apart in the source
[10] = Ebola virus entry reporter assay, green channel fluorescence
[11] = Ebola virus entry assay, blue channel fluorescence; remark: listed apart in the source
[12] = Ebola virus entry assay, blue channel (ratio component)
Wherever efficacy is given: 0% is about no effect.

CCCCc1oc2ccccc2c1C(=O)c1cc(I)c(OCCN(CC)CC)c(I)c1
active: AC50 [1] 6.31 µM | AC50 [2] 6.31 µM | AC50 [3] 6.31 µM

CNCCCCOc1ccccc1Cc1ccccc1
active: AC50 [4] 3.16 µM | AC50 [5] 3.16 µM

O=C(O)c1ccccc1O
inactive: efficacy [6] -10.2% | outcome [1] | outcome [7] | outcome [2] | outcome [8] | outcome [9] | outcome [10] | outcome [3]

CC(Cc1ccc(O)cc1)NCC(O)c1cc(O)cc(O)c1 (centres undefined)
inactive: efficacy [6] 34.5% | outcome [11] | outcome [8] | outcome [5] | outcome [12]

COc1ccccc1OCCNCC(O)COc1cccc2[nH]c3ccccc3c12 (centres undefined)
inactive: outcome [7] | outcome [10]

Cc1ncc([N+](=O)[O-])n1CCO
inactive: outcome [1] | outcome [11] | outcome [9] | outcome [12]
